This note sets out measurements from ChEMBL document CHEMBL3120129, “Enantiomeric atropisomers inhibit HCV polymerase and/or HIV matrix: characterizing hindered bond rotations and target selectivity” (J Med Chem, 2014).

The subject of one assay is Hepatitis C virus. The assay can be described thus: Antiviral activity against HCV genotype 1b by HCV replicon assay. Type of assay: functional, organism-based, Hepacivirus hominis.
Assay [1] can be described thus: Inhibition of HCV genotype 1b hexa-histidine-tagged NS5B polymerase expressed in baculovirus infected cell system.

Only a part of the results on these compounds is given; other tests are left out.

Molecule `CN1CCC(N(c2ccc(Oc3ccccc3C(F)(F)F)cc2C(=O)O)C(=O)[C@H]2CC[C@H](C)CC2)CC1` came in with an EC50 in the assay on Hepatitis C virus of 70 nM. Also, in assay [1], the IC50 came out at 130 nM.
